Test results as given in BindingDB's records for doi:10.1016/j.bioorg.2015.04.003 (Comsats Institute of Information Technology, 2015).

Biological target: T1, Thymidine phosphorylase (Escherichia coli O157:H7, UniProt Q8XB35)
T1 sequence (Q8XB35 whole entry): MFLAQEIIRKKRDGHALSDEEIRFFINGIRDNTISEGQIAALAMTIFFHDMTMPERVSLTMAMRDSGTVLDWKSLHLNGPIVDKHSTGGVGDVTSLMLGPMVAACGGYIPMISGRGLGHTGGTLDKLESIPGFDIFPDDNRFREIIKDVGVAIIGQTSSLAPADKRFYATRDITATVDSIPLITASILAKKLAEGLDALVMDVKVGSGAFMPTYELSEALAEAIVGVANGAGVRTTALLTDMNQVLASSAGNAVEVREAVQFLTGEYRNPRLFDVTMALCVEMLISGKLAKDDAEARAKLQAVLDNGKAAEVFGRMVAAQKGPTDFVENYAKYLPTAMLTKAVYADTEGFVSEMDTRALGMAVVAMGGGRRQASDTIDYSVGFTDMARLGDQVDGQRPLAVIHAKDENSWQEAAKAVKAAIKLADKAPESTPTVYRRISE
Assay: Thymidine Phosphorylase Inhibition Assay
Conditions: pH 7.4
Method: Briefly, a total reaction mixture of 200 µl contained 145 µl of potassium phosphate buffer (pH 7.4), 30 µl of enzyme at concentration 0.05 and 0.002 U, respectively, were incubated with 5 µl of test materials for 10 min at 25 °C in microplate reader. After incubation, pre read at 290 nm was taken to deduce the absorbance of substrate molecules. Substrate (20 µl, 1.5 mM) was dissolved in potassium phosphate buffer and was immediately added to plate and continuously read after 10, 20, and 30 min in micro-plate reader. All assays were performed in triplicate

## O=c1[nH]c(=O)c2cc[nH]c2[nH]1 [1,7-Dihydro-pyrrolo[2,3-d]pyrimidine-2,4-dione]
  IC50: 38.7 µM
